Assay results taken from patent publication US6110963A, “Aryl-oxo-acetic acids useful in the treatment of insulin resistance and hyperglycemia” (American Home Products Corporation, priority 1999, dated 2000).

Tested on: rat hepatic microsomal PTPases
Assay: Inhibition of tri-phosphorylated insulin receptor dodecaphosphopeptide dephosphorylation by rat hepatic PTPases
Conditions: PTPase activity, compound at 50 μM, rat liver microsomes

## O=[As]c1ccccc1 (stereo not shown)
  % Change from Control: -57%
